Some results are limits rather than exact numbers.

The record followed here is patent US20160009772A1 (priority 2012, published 2016).

Data set [1] can be described thus: peptide made by a vendor (Fmoc solid-phase peptide synthesis; Rink Amide MBHA resin; Fmoc-Linker-Rink amide resin; HBTU or DIC, HOBT added). Conditions: whole synthesis, analytical HPLC, scale of the general procedure 0.4 mm.
Data set [2] can be described thus: peptide made by a vendor (Fmoc solid-phase peptide synthesis; Fmoc-Linker-Rink amide resin; HBTU or DIC, HOBT added). Conditions: whole synthesis, scale 0.15 mmole.

Regarding Ac-KDLMVQWFKDGGPSSGAPPPS-NH2, in data set [1], the “final HPLC purity” value was over 95%. The substance also registered an isolated yield in data set [2] of 20%.
